Measured values from several laboratories, pooled; numbers as filed in NIAID ChemDB.

Shared fields: whole-cell or culture tests

Percent inhibition refers to the dose given; in toxicity tests it is the harm to the cells.

SMILES | species | strain or isolate | changes | cell line | read by | endpoint | dose | value
Nc1nc2c(ncn2COCCO)c(=O)[nH]1 | Human herpesvirus 7 |  |  | SupT1 | syncytia | EC50 |  | >250 µg/mL
NC(=O)c1[nH]nc([C@@H]2O[C@H](CO)[C@@H](O)[C@H]2O)c1O | Measles virus | Yamagata-1 |  | VERO | plaque count | EC50 |  | 0.12 µg/mL
O[C@]12C=C(c3nccc4c3[nH]c3ccccc34)[C@@H]3CCN(CCCC/C=C/CC1)C[C@@]31C[C@@H]3/C=C\CCCCN3C12 | Toxoplasma gondii |  |  | HFF |  | inhibition | 0.1 µM | 70%
CCCN(CCC)c1c([N+](=O)[O-])cc(C(F)(F)F)cc1[N+](=O)[O-] | Toxoplasma gondii | Trifluralin-resistant |  |  |  | EC50 |  | 3 µM
Nc1nc2c(ncn2[C@H]2CO[C@@H](CO)O2)c(=O)[nH]1 | Duck hepatitis B virus | WILD TYPE |  | LMH |  | EC50 |  | 4.4 µM
N=C(N)c1cn([C@H]2C[C@H](O)[C@@H](CO)O2)c2ncnc(N)c12 | Mouse cytomegalovirus | SMITH |  | MEF | plaque count | EC50 |  | 11 µM
Nc1ccn(C[C@H]2COP(=O)(O)CO2)c(=O)n1 | Human herpesvirus 7 |  |  | CD4+ T lymphocytes | syncytia | EC50 |  | 1 µg/mL
Nc1nc(=O)n([C@@H]2CS[C@H](CO)O2)cc1F | Duck hepatitis B virus | WILD TYPE |  | HepG2 |  | EC50 |  | 0.058 µM
C[C@@]1(F)[C@H](O)[C@@H](CO)O[C@H]1n1ccc(N)nc1=O | Bovine viral diarrhea virus |  |  | Huh7 | replicon | EC90 |  | >100 µM
CC(C)=CCN1c2cc(Cl)cc3[nH]c(=S)n(c23)C[C@@H]1C | HIV-1 |  | RT-K70R Y181C | MT-4 |  | EC95 |  | 12.5 µM
NC(=O)c1[nH]nc([C@@H]2O[C@H](CO)[C@@H](O)[C@H]2O)c1O | Respiratory syncytial virus | S-8 |  | HeLa | cytopathic effect | EC50 |  | 0.02 µg/mL
Nc1ccn([C@@H]2C=C(CO)[C@@H](O)[C@@H]2O)c(=O)n1 | Measles virus | Niigata-1 |  | VERO | plaque count | EC50 |  | 0.049 µg/mL
Cc1cc(O)c2c(c1O)C(=O)c1cccc(O)c1C2=O | Herpes simplex virus 1 | KOS |  | HeLa | cytopathic effect | EC50 |  | >200 µg/mL
CCCCCCCCCN1[C@H](CN)[C@@H](O)[C@H](O)[C@H]1CO | Dengue virus |  |  |  |  | EC50 |  | >50 µM
O=c1[nH]c(=O)n([C@@H]2O[C@H](CO)C[C@H]2O)cc1F | Respiratory syncytial virus | LONG |  | HeLa | cytopathic effect | EC50 |  | >500 µg/mL
Nc1ncnc2c1ncn2CCOCP(=O)(O)O | Cytomegalovirus | AD169 |  |  | cytopathic effect | EC50 |  | 95 µM
Clc1ccc(COC(Cn2ccnc2)c2ccc(Cl)cc2Cl)c(Cl)c1 | Candida krusei | LM 120 |  |  | broth dilution | MFC100 |  | 32 µg/mL
Nc1ccn([C@@H]2C[C@H](CO)[C@@H](O)[C@H]2O)c(=O)n1 | Respiratory syncytial virus | 58-8 |  | HeLa | cytopathic effect | EC50 |  | 35.5 µg/mL
Nc1ncnc2c1ncn2C[C@H](O)CO | Measles virus | Niigata-1 |  | VERO | plaque count | EC50 |  | >200 µg/mL
COc1cc(O)c2c(c1)C(=O)c1cc3c(c(O)c1C2=O)C(O[C@@H]1O[C@@H](C)[C@H](OC)[C@@H](O)[C@H]1OC)C(OC)C(C)(O)C3=O | Herpes simplex virus 1 | KOS |  | HeLa | cytopathic effect | EC50 |  | >200 µg/mL
C[C@H]1NCc2cc(-c3ccc4c(=O)c(C(=O)O)cn(C5CC5)c4c3OC(F)F)ccc21 | Haemophilus influenzae | 17 strains (beta-lactamase-producing) |  |  |  | MIC50 |  | 0.016 µg/mL
O=c1cnn([C@@H]2O[C@H](CO)[C@@H](O)[C@H]2O)c(=O)[nH]1 | Dengue virus | TYPE 4 (YUNH) |  | VERO | cytopathic effect | EC50 |  | 0.1 µg/mL
Nc1nccc2c1ncn2[C@@H]1O[C@H](CO)[C@@H](O)[C@H]1O | Vesicular stomatitis virus |  |  | PRK | cytopathic effect | EC50 |  | 7 µg/mL
O=c1cnn([C@@H]2O[C@H](CO)[C@@H](O)[C@H]2O)c(=O)[nH]1 | Measles virus | Yamagata-1 |  | VERO | plaque count | EC50 |  | 0.74 µg/mL
OC(Cn1cncn1)(Cn1cncn1)c1ccc(F)cc1F | Aspergillus oryzae | CCAM 080006 |  |  | broth dilution | MIC100 |  | 1.25 µg/mL
NC(=O)c1ncn([C@@H]2O[C@H](CO)[C@@H](O)[C@H]2O)n1 | Pichinde virus |  |  | VERO 76 | cytopathic effect | EC50 |  | 3.2–10 µg/mL
O=C(Nc1ccccc1)c1c(O)[nH]c(=S)[nH]c1=O | Epstein-Barr virus |  |  | Akata-Bx1 | PCR | EC50 |  | 22.19 µM
NC(=O)N=NC(N)=O | Tacaribe virus |  |  | VERO | cytopathic effect | EC50 |  | >100 µM
C#C[C@]1(CO)O[C@@H](n2cnc3c(N)nc(F)nc32)C[C@@H]1O | SIV |  |  | PBMC | p27 / ELISA | EC90 |  | 0.0004 µM
C[C@H](COc1cc(N)nc(N)n1)OCP(=O)(O)O | Punta Toro virus |  |  |  | cytopathic effect | EC50 |  | >180 µM
Nc1cc2[nH]cnc2c(=O)[nH]1 | Respiratory syncytial virus | 58-13 |  | HeLa | cytopathic effect | EC50 |  | 2 µg/mL
CC(=O)N[C@H]1[C@H]([C@H](O)[C@H](O)CO)OC(C(=O)O)=C[C@@H]1N=C(N)N | Influenza A virus | H1N1 A/Brazil/11/78 |  | MDCK |  | EC50 |  | 0.014 µM
C#CC[C@@H](C(=O)N[C@H](/C=C/C(=O)OCC)C[C@@H]1CCNC1=O)n1cccc(NC(=O)c2cc(C)on2)c1=O | Rhinovirus | Serotype 17 |  | H1-HELA | cytopathic effect / XTT | inhibition | 0.084 µM | 90%
NC(=O)c1cn([C@@H]2O[C@H](CO)[C@@H](O)[C@@H]2O)c2ncnc(N)c12 | Mouse cytomegalovirus | SMITH |  | MEF | plaque count | EC50 |  | 8 µM
NC(=O)c1ncn([C@@H]2O[C@H](CO)[C@@H](O)[C@H]2O)n1 | Respiratory syncytial virus | LONG |  | HEP-2 | plaque count | inhibition | 10 µg/mL | 97%
O=C1C(=O)c2ccccc2C(O)=C1C1CCC(c2ccc(Cl)cc2)CC1 | Plasmodium berghei | Pb1052 c11 |  | HepG2 | luciferase | EC50 |  | 0.00142 µM
NC(=O)c1[nH]nc([C@@H]2O[C@H](CO)[C@@H](O)[C@H]2O)c1O | Herpes simplex virus 1 | KOS |  | HeLa | cytopathic effect | EC50 |  | >200 µg/mL
NC(=O)c1nc(F)c[nH]c1=O | Influenza C virus | JJ/50 |  | MDCK | plaque count | EC50 |  | 0.03 µg/mL
Nc1ccc(S(=O)(=O)Nc2ncccn2)cc1 | Toxoplasma gondii |  |  |  |  | EC50 |  | >1 µg/mL
CCC[C@H](N)C1CCN(c2c(F)cn3c(=O)c(C(=O)O)cc(C4CC4)c3c2C)C1 | Streptococcus pyogenes | EES61 |  |  |  | MIC |  | 0.002 µg/mL
C[C@H](Cn1cnc2c(N)ncnc21)OCP(=O)(O)O | Duck hepatitis B virus |  |  | Primary duck hepatocytes | hybridisation | EC50 |  | 0.11 µM
Cc1c(N2C[C@H]3CCCC[C@@]3(N)C2)c(F)cn2c(=O)c(C(=O)O)cc(C3CC3)c12 | Streptococcus pyogenes | EES61 |  |  |  | MIC |  | 0.1 µg/mL
Nc1nc(=O)n2ccn([C@@H]3O[C@H](CO)[C@@H](O)[C@H]3O)c2n1 | West Nile virus | ATCC VR-82 |  | VERO | cytopathic effect | EC50 |  | 3 µg/mL
O=C(O)P(=O)(O)O | Human herpesvirus 7 |  |  | SupT1 | syncytia | EC50 |  | 2.3 µg/mL
Nc1ncnc2c1ncn2C[C@@H](CO)OCP(=O)(O)O | Measles virus | Niigata-1 |  | VERO | plaque count | EC50 |  | >200 µg/mL
CCCSc1ccc2nc(NC(=O)OC)[nH]c2c1 | Vittaforma corneae |  |  |  |  | MIC |  | 0.055 µg/mL
CC[C@H](NC)C1CCN(c2c(F)cn3c(=O)c(C(=O)O)cc(C4CC4)c3c2C)C1 | Streptococcus pyogenes | EES61 |  |  |  | MIC |  | 0.005 µg/mL
Nc1ncnc2c1ccn2[C@@H]1O[C@H](CO)[C@@H](O)[C@H]1O | Respiratory syncytial virus | S-2 |  | HeLa | cytopathic effect | EC50 |  | 1 µg/mL
O=c1[nH]c(=O)n([C@H]2C[C@H](O)[C@@H](CO)O2)cc1/C=C/Br | Human herpesvirus 7 |  |  | SupT1 | syncytia | EC50 |  | >20 µg/mL
Cc1c(N2CC[C@H](N)C2)c(F)cn2c(=O)c(C(=O)O)cc(C3CCC3)c12 | Streptococcus pyogenes | EES61 |  |  |  | MIC |  | 0.78 µg/mL
Nc1ncnc2c1c(Cl)cn2[C@@H]1O[C@H](CO)[C@@H](O)[C@H]1O | Respiratory syncytial virus | LONG |  | HeLa | cytopathic effect | EC50 |  | >4 µg/mL
NC1=NC2C(C=CN2CC(CO)CCO)C(=O)N1 | Human herpesvirus 7 |  |  | SupT1 | syncytia | EC50 |  | >107 µg/mL
C=C[C@]1(C)C[C@@H](OC(=O)CO)[C@]2(C)C(C)CC[C@]3(CCC(=O)C32)[C@@H](C)[C@@H]1O | Herpes simplex virus 1 | KOS |  | HeLa | cytopathic effect | EC50 |  | 40 µM
NC12CC3CC(CC(C3)C1)C2 | Measles virus | Yamagata-1 |  | VERO | plaque count | EC50 |  | 90 µg/mL
C#Cc1c(C(N)=O)ncn1[C@@H]1O[C@H](CO)[C@@H](O)[C@H]1O | Mumps virus | ECXH-3 |  | VERO | plaque count | EC50 |  | 1.9 µg/mL
Nc1ncnc2c1ncn2[C@H]1CC[C@@H](CO)O1 | HIV-2 | LAV-2 |  | U-937 | virus yield | inhibition | 100 µM | 95%
c1ccc(N=Nc2ccccc2)cc1 | Tacaribe virus |  |  | VERO | cytopathic effect | EC50 |  | 35.2 µM
Nc1ncnc2c1ncn2C[C@@H](CO)OCP(=O)(O)O | Sindbis virus |  |  |  | cytopathic effect | EC50 |  | >50 µM
CCN(CC)CCCC(C)Nc1ccnc2cc(Cl)ccc12 | Plasmodium berghei | Pb1052 c11 |  | HepG2 | luciferase | EC50 |  | >1.2 µM
Cc1c(N2C[C@H]3CCCC[C@@]3(CN)C2)c(F)cn2c(=O)c(C(=O)O)cc(C3CC3)c12 | Streptococcus pyogenes | EES61 |  |  |  | MIC |  | 0.005 µg/mL
C[C@@H](c1nc(-c2ccc(C#N)cc2)cs1)[C@](O)(Cn1cnnc1)c1ccc(F)cc1F | Candida albicans | A28970 |  |  |  | MIC |  | 1 µg/mL
C#C[C@]1(CO)O[C@@H](n2cnc3c(N)nc(F)nc32)CC1O | HIV-2 | ROD9 | K65R Q151M | MAGIC-5A | β-galactosidase / absorbance | EC50 |  | 0.0002 µM
CSCC[C@H](N)C1CCN(c2c(F)cn3c(=O)c(C(=O)O)cc(C4CC4)c3c2C)C1 | Streptococcus pyogenes | EES61 |  |  |  | MIC |  | 0.002 µg/mL
Nc1ncc2c(ncn2COC(CO)CO)n1 | Human herpesvirus 7 |  |  | SupT1 | syncytia | EC50 |  | 0.0001 µg/mL
COc1ccc(-c2oc3c4c(cc(O)c3c(=O)c2O)OC(C)(C)CC4)cc1 | SIV | MAC251 |  | CEMx174 | PCR | EC50 |  | 1.159 µM
Cc1c(N2Cc3cccnc3C2)c(F)cn2c(=O)c(C(=O)O)cc(C3CC3)c12 | Streptococcus pyogenes | EES61 |  |  |  | MIC |  | 0.05 µg/mL

The first 9 rows once more:

SMILES	species	strain or isolate	changes	cell line	read by	endpoint	dose	value
Nc1nc2c(ncn2COCCO)c(=O)[nH]1	Human herpesvirus 7			SupT1	syncytia	EC50		>250 µg/mL
NC(=O)c1[nH]nc([C@@H]2O[C@H](CO)[C@@H](O)[C@H]2O)c1O	Measles virus	Yamagata-1		VERO	plaque count	EC50		0.12 µg/mL
O[C@]12C=C(c3nccc4c3[nH]c3ccccc34)[C@@H]3CCN(CCCC/C=C/CC1)C[C@@]31C[C@@H]3/C=C\CCCCN3C12	Toxoplasma gondii			HFF		inhibition	0.1 µM	70%
CCCN(CCC)c1c([N+](=O)[O-])cc(C(F)(F)F)cc1[N+](=O)[O-]	Toxoplasma gondii	Trifluralin-resistant				EC50		3 µM
Nc1nc2c(ncn2[C@H]2CO[C@@H](CO)O2)c(=O)[nH]1	Duck hepatitis B virus	WILD TYPE		LMH		EC50		4.4 µM
N=C(N)c1cn([C@H]2C[C@H](O)[C@@H](CO)O2)c2ncnc(N)c12	Mouse cytomegalovirus	SMITH		MEF	plaque count	EC50		11 µM
Nc1ccn(C[C@H]2COP(=O)(O)CO2)c(=O)n1	Human herpesvirus 7			CD4+ T lymphocytes	syncytia	EC50		1 µg/mL
Nc1nc(=O)n([C@@H]2CS[C@H](CO)O2)cc1F	Duck hepatitis B virus	WILD TYPE		HepG2		EC50		0.058 µM
C[C@@]1(F)[C@H](O)[C@@H](CO)O[C@H]1n1ccc(N)nc1=O	Bovine viral diarrhea virus			Huh7	replicon	EC90		>100 µM

Neighbouring rows are from separate reports. A number after MIC or MFC names an inhibition level or a share of isolates. Blank or dashed fields: not listed here. Two numbers with a dash give a range or band. ECn: concentration that inhibits the pathogen or its effect by n%.